Pooled drug test results. Numbers come from NIAID ChemDB, via PubChem.

Shared fields: whole-cell or culture tests; organism: Aspergillus fumigatus

An empty or dashed field is not shown.

structure,strain or isolate,method,measure,result
Cc1nc(N)nc(N)c1C#CC(C)C,,,MIC,12.5 µg/mL
CCC(C)CC(C)CCCCCCCCC(=O)N[C@H]1C[C@@H](O)[C@H](NCCN)NC(=O)[C@@H]2[C@@H](O)CCN2C(=O)[C@H]([C@H](O)CCN)NC(=O)[C@H]([C@H](O)[C@@H](O)c2ccc(O)cc2)NC(=O)[C@@H]2C[C@@H](O)CN2C(=O)[C@H]([C@@H](C)O)NC1=O,,broth dilution,MEC,0.06 µg/mL
C[C@@H](n1ccn(-c2ccc(OC(F)(F)C(F)F)cc2)c1=O)C(O)(Cn1cncn1)c1ccccc1F,IFO6344,,MIC,2 µg/mL
CC(C)CC1NC(=O)CC(CCCCCCCCC(C)O)OC(=O)C(CC(C)C)NC(=O)C(CC(C)C)NC(=O)C(CC(C)C)NC(=O)C(C(C)C)NC(=O)C(CC(=O)O)NC(=O)C(CC(C)C)NC1=O,Clinical isolate,absorbance,MIC,4 µg/mL
O=S(=O)(c1ccccc1)n1cc(C(F)(F)C(O)(Cn2cncn2)c2ccc(F)cc2F)c2ccccc21,IFM 40808,,MIC,>64 µg/mL
C=C1/C=C(\C)[C@H](CC)OC(=O)[C@H](C)C(=O)C(O)(CO)C/C(OC)=C/[C@@H](C)C1,MF4839,,MIC,>32 µg/mL
O=C1C[C@@H](c2ccc(F)c(Br)c2)Cc2cc(O)cc(O)c21,Clinical isolate H237,,MIC,>706 µg/mL
Cn1c(C(F)(F)C(O)(Cn2cncn2)c2ccc(F)cc2F)nc2ccccc21,IFM 40808,,MIC,>8 µg/mL
Clc1ccc(C(c2ccccc2)N2CCN(CCn3ccnc3)CC2)cc1,,agar,MIC90,>256 µg/mL
CCCCCCCCCCC[C@H]1NC(=O)[C@H](CC(C)(C)C)NC(=O)[C@H](CCCCN)NC(=O)CNC(=O)[C@@H]1C,,,MIC,128 µg/mL
O=C(N/N=C/c1cc([N+](=O)[O-])ccc1O)c1ccc(I)cc1,Strain #2,,MIC,0.4 µg/mL
COc1ccc(N2C(=O)CC(c3c(C)nn(-c4ccccc4)c3Cl)C3=C2CCCC3=O)cc1,MTCC 3008,broth dilution,MIC,1000 µg/mL
CCCCCOc1ccc(-c2cc(-c3ccc(C(=O)N[C@H]4C[C@@H](O)[C@@H](O)NC(=O)[C@@H]5[C@@H](O)[C@@H](C)CN5C(=O)[C@H]([C@H](O)CC(N)=O)NC(=O)[C@H]([C@H](O)[C@@H](O)c5ccc(O)c(OS(=O)(=O)O)c5)NC(=O)[C@@H]5C[C@@H](O)CN5C(=O)[C@H]([C@@H](C)O)NC4=O)cc3)no2)cc1,FP1305,broth dilution,MIC,>50 µg/mL
O=C(c1ccccc1)C(c1ccccc1)n1nnc2ccccc21,,agar,MIC90,>256 µg/mL
CCOC(=O)C1=C(C)NC(C)=C(C(=O)OCC)C1c1cccc(Cl)c1,,,MIC,>1000 µg/mL
O=C(NCc1ccc(Cl)c(Cl)c1)c1ccccc1O,231,,Geometric mean MIC,403.4 µM
Cc1ccc(-n2nc(C)c(C3CC(=O)N(c4ccc(F)cc4)C4=C3C(=O)CC(C)(C)C4)c2Cl)cc1,MTCC 3008,broth dilution,MIC,500 µg/mL
COc1c2c(c3oc4c(O)cccc4c(=O)c3c1O)C=CC(C)(C)O2,CBS 113.26,,MIC80,8 µg/mL
CCOC(=O)C1=C(C)NC(C)=C(C(=O)OCC)C1c1ccc(Br)cc1,,,MIC,500 µg/mL
c1ccc(C(c2ccccc2)n2ccnc2)cc1,,agar,MIC90,0.5 µg/mL
CCOC(=O)C1=C(C)NC(C)=C(C(=O)OCC)C1c1ccc(O)c(OC)c1,,,MIC,500 µg/mL
Cc1ccc(C(C)C)cc1,ATCC 46645,,MIC,>20 µg/mL
CCCCCCCCCCCCC(C)(O)C1CC(=O)NC(CO)C(=O)N[C@H](C)C(=O)NC(CC(=O)O)C(=O)NC(CC(N)=O)C(=O)NC(CC(N)=O)C(=O)NC(CO)C(=O)NC([C@@H](C)O)C(=O)O1,MF-13,,MIC,16 µg/mL
CCCCCCCCCC[C@@H]1CC(=O)NCC(=O)N[C@@H](CCCCN)C(=O)N[C@@H](CC(C)(C)C)C(=O)N1,,,MIC,8 µg/mL
C=C1CC[C@H]2C[C@@H]1C2(C)C,IP 2279.94,broth dilution,MIC,6000 µg/mL
CCOC(=O)C1=C(C)NC(C)=C(C(=O)OCC)C1c1cccc(O)c1,,,MIC,>1000 µg/mL
OC(Cc1ccccn1)(Cn1cncn1)c1ccc(F)cc1F,IFM 40808,,MIC,>8 µg/mL
Cc1nn(-c2cccc(Cl)c2)c(Cl)c1C1CC(=O)N(c2ccc(F)cc2)C2=C1C(=O)CC(C)(C)C2,MTCC 3008,broth dilution,MIC,500 µg/mL
Nc1scc2c1c(=O)oc1ccc3ccccc3c12,,broth dilution,MIC,64 µg/mL
C[C@H]1[C@H](O)[C@@H](C)/C=C/C=C/C=C/C=C/C=C/C=C/C=C/[C@H](O[C@@H]2O[C@H](C)[C@@H](O)[C@H](N)[C@@H]2O)C[C@@H]2O[C@](O)(C[C@@H](O)C[C@@H](O)CC[C@H](O)[C@@H](O)C[C@@H](O)CC(=O)O[C@H]1C)C[C@H](O)[C@H]2C(=O)O,,,MIC80,8 µg/mL
Cc1nn(-c2ccccc2)c(Cl)c1C1CC(=O)N(c2ccc(F)cc2)C2=C1C(=O)CCC2,MTCC 3008,broth dilution,MIC,1000 µg/mL
N#Cc1ccc(Nc2nc(Oc3cccc4cccnc34)nc(N3CCN(c4ncccn4)CC3)n2)cc1C(F)(F)F,MTCC 343,agar,MIC,6.25 µg/mL
C[C@@H](n1ncn(-c2ccc(OCC(F)(F)C(F)F)cc2)c1=O)[C@](O)(Cn1cncn1)c1ccc(F)cc1F,437,,MIC,2 µg/mL
COc1cc(O)c2c(=O)c3cccc(O)c3oc2c1,CBS 113.26,,MIC80,31 µg/mL
C[C@H]1[C@H](O)[C@@H](C)/C=C/C=C/C=C/C=C/C=C/C=C/C=C/[C@H](O[C@@H]2O[C@H](C)[C@@H](O)[C@H](N)[C@@H]2O)C[C@@H]2O[C@](O)(C[C@@H](O)C[C@@H](O)CC[C@H](O)[C@@H](O)C[C@@H](O)CC(=O)O[C@H]1C)C[C@H](O)[C@H]2C(=O)O,,,MLC90,4 µg/mL
CCC(C)n1ncn(-c2ccc(N3CCN(c4ccc(OC[C@H]5CO[C@](Cn6cncn6)(c6ccc(Cl)cc6Cl)O5)cc4)CC3)cc2)c1=O,H11-20,,MIC,0.07 µg/mL
CC(=O)O[C@H]1C[C@@]2(C)[C@@H](C[C@@H](O)[C@H]3[C@@]4(C)CC[C@@H](O)[C@@H](C)[C@@H]4CC[C@@]32C)/C1=C(\CCC=C(C)C)C(=O)O,,agar diffusion / agar,EC50,>100 µg/mL
N#Cc1ccc(Nc2nc(Oc3cccc4cccnc34)nc(N3CCN(c4cccc(Cl)c4)CC3)n2)cc1C(F)(F)F,MTCC 343,agar,MIC,25 µg/mL
Cc1nc(N)nc(N)c1C#Cc1ccccc1,,,MIC,6.2 µg/mL
CC(C(O)(Cn1cncn1)c1ccc(F)cc1F)S(C)(=O)=O,H11-20,,MIC,10 µg/mL
COc1cc([C@@H]2CC(=O)c3c(O)cc(O)cc3C2)ccc1F,Clinical isolate H237,,MIC,304 µg/mL
COc1ccc(N2C(=O)CC(c3c(C)nn(-c4ccc(C)cc4)c3Cl)C3=C2CCCC3=O)cc1,MTCC 3008,broth dilution,MIC,500 µg/mL
CCOC(=O)C1=C(C)NC(C)=C(C(=O)OCC)C1c1cccc(OCC(O)CCl)c1,,,MIC,500 µg/mL
C[C@@H](N1CCN(c2ccc(OCC(F)(F)C(F)F)cc2)C1=O)C(O)(Cn1cncn1)c1ccccc1F,437,,MIC,1 µg/mL
CCC(C)CCCCCCC1CC(=O)NCC(=O)N[C@@H](CCCN)C(=O)N[C@@H](C(C)C)C(=O)N1,TIMM0063,,MIC,>80 µg/mL
C[C@@H](N1CCN(c2ccc(OC(F)(F)C(F)F)cc2)C1=O)C(O)(Cn1cncn1)c1ccc(F)cc1F,437,,MIC,0.25 µg/mL
OC(Cn1cncn1)(c1ccc(F)cc1F)C(F)(F)c1nc(Br)cs1,IFM 40808,,MIC,2 µg/mL
COc1c(O)cc2c(=O)c3ccccc3oc2c1OC,,,MIC80,62 µg/mL
CCC(C)C#Cc1c(C)nc(N)nc1N,,,MIC,6.2 µg/mL
CC(C)CCCCCCCCC1CC(=O)NCC(=O)N[C@@H](CCCN)C(=O)N[C@@H](C(C)C)C(=O)N1,TIMM0063,,MIC,>80 µg/mL
Cc1ccc(CNC(=O)c2ccccc2O)cc1,231,,Geometric mean MIC,487.5 µM
COc1c(O)cc2oc3cc(O)cc(O)c3c(=O)c2c1OC,CBS 113.26,,MIC80,16 µg/mL
CCCCCCCCC[C@@H]1CC(=O)NCC(=O)N[C@@H](CCCCN)C(=O)N[C@@H](CCC(=O)O)C(=O)N1,TIMM0063,,MIC,>128 µg/mL
COC(=O)C1OC2(CCCC(OC(C)=O)C(C)C/C=C/c3ccccc3)OC(C(=O)O)(C(OC(=O)CCCCCC/C=C/c3ccccc3)C2O)C1(O)C(=O)O,10569,,MIC,3.1 µg/mL
CCCCCCCCC[C@@H]1NC(=O)[C@H](CC(C)(C)C)NC(=O)[C@H](CCCN)NC(=O)CNC(=O)C1(F)F,,,MIC,16 µg/mL
CC(=O)N1CCN(c2ccc(OC[C@H]3CO[C@](Cn4ccnc4)(c4ccc(Cl)cc4Cl)O3)cc2)CC1,ATCC 9142,broth dilution,MFC,500 µg/mL
Cc1nn(-c2cccc(Cl)c2)c(Cl)c1C1CC(=O)N(c2ccc(F)cc2)C2=C1C(=O)CCC2,MTCC 3008,broth dilution,MIC,500 µg/mL
COc1c2c(c3oc4c(O)cccc4c(=O)c3c1O)CC(C(C)(C)O)O2,,,MIC80,125 µg/mL
C[C@@H](n1ccn(-c2ccc(OC(F)(F)C(F)F)cc2)c1=O)C(O)(Cn1cncn1)c1ccc(F)cc1F,IFO6344,,MIC,1 µg/mL
C[C@H]1[C@H](O)[C@@H](C)/C=C/C=C/C=C/C=C/C=C/C=C/C=C/[C@H](O[C@@H]2O[C@H](C)[C@@H](O)[C@H](N)[C@@H]2O)C[C@@H]2O[C@](O)(C[C@@H](O)C[C@@H](O)CC[C@H](O)[C@@H](O)C[C@@H](O)CC(=O)O[C@H]1C)C[C@H](O)[C@H]2C(=O)O,ATCC 46645,broth dilution,MFC,4 µg/mL
CCCCCCCCC[C@@H]1CC(=O)NCC(=O)N[C@@H](CCCCNCCC)C(=O)N[C@@H](C(C)C)C(=O)N1,TIMM0063,,MIC,>128 µg/mL
CCCCCCCCC[C@@H]1CC(=O)NCC(=O)N[C@@H](CCCCN)C(=O)N[C@@H](CC(C)C)C(=O)N1,,,MIC,>128 µg/mL
CCCCCCCCCCC[C@@H]1CC(=O)NCC(=O)N[C@@H](CCCCN)C(=O)N[C@@H]([C@@H](C)CC)C(=O)N1,TIMM0063,,MIC,16 µg/mL
N#Cc1ccc(Nc2nc(Oc3cccc4cccnc34)nc(N3CCOCC3)n2)cc1C(F)(F)F,MTCC 343,agar,MIC,50 µg/mL
CCCCCCCCC[C@@H]1CC(=O)NCC(=O)N[C@@H](CCC(=O)O)C(=O)N[C@@H](C(C)C)C(=O)N1,TIMM0063,,MIC,>64 µg/mL
COc1ccc(C(c2ccc(OC)cc2)n2ccnc2)cc1,,agar,MIC90,>256 µg/mL

For reference, 9 entries again:

structure | strain or isolate | method | measure | result
Cc1nn(-c2cccc(Cl)c2)c(Cl)c1C1CC(=O)N(c2ccc(F)cc2)C2=C1C(=O)CCC2 | MTCC 3008 | broth dilution | MIC | 500 µg/mL
CCCCCCCCC[C@@H]1CC(=O)NCC(=O)N[C@@H](CCCCN)C(=O)N[C@@H](CCC(=O)O)C(=O)N1 | TIMM0063 |  | MIC | >128 µg/mL
Cn1c(C(F)(F)C(O)(Cn2cncn2)c2ccc(F)cc2F)nc2ccccc21 | IFM 40808 |  | MIC | >8 µg/mL
Cc1nn(-c2cccc(Cl)c2)c(Cl)c1C1CC(=O)N(c2ccc(F)cc2)C2=C1C(=O)CC(C)(C)C2 | MTCC 3008 | broth dilution | MIC | 500 µg/mL
CCCCCCCCC[C@@H]1NC(=O)[C@H](CC(C)(C)C)NC(=O)[C@H](CCCN)NC(=O)CNC(=O)C1(F)F |  |  | MIC | 16 µg/mL
CC(C)CCCCCCCCC1CC(=O)NCC(=O)N[C@@H](CCCN)C(=O)N[C@@H](C(C)C)C(=O)N1 | TIMM0063 |  | MIC | >80 µg/mL
COc1ccc(N2C(=O)CC(c3c(C)nn(-c4ccccc4)c3Cl)C3=C2CCCC3=O)cc1 | MTCC 3008 | broth dilution | MIC | 1000 µg/mL
Cc1ccc(CNC(=O)c2ccccc2O)cc1 | 231 |  | Geometric mean MIC | 487.5 µM
N#Cc1ccc(Nc2nc(Oc3cccc4cccnc34)nc(N3CCN(c4ncccn4)CC3)n2)cc1C(F)(F)F | MTCC 343 | agar | MIC | 6.25 µg/mL

Conditions beyond the fields shown may differ between rows. ECn: concentration that inhibits the pathogen or its effect by n%. A number after MIC or MFC names an inhibition level or a share of isolates.